The values below come from patent publication US8993542B2, “Methods of treating viral infections” (priority 2008, dated 2015).

“Also recorded” adds a separate entry of the source.

This data set concerns HIV-1IIIB. The data set can be described thus: Resistance selection by serial passage in CEM-SS cells. The class given is cell-based. The method, then: In vitro studies designed to select CMX157 resistant mutants use wild-type HIV-1 as the primary inoculum and TFV as a positive control. These studies are conducted by serial passage of HIV-1IIIB and HIV-1RF in CEM-SS cells using increasing concentrations of TFV or CMX157. Drug levels are increased following detection of viral growth at each passage using procedures known to one skilled in the art. Upon completion of each passage, the reverse transcriptase coding region of the viral genome is sequenced to identify any possible resistance-associated mutations that may have emerged within the virus pool.

`C[C@H](Cn1cnc2c(N)ncnc21)OCP(=O)(O)O` [TFV, (R)-9-(2-phosphonylmethoxypropyl)adenine]: the “Mutations Observed in RT of Passaged Virus” value is, setting by setting: (Passage 1, Tenofovir 10 μM (2× IC50)) “None”; (Passage 2, Tenofovir 20 μM (4× IC50)) “None”; (Passage 3, Tenofovir 30 μM (6× IC50)) “None”; (Passage 4, Tenofovir 40 μM (8× IC50)) “None”; (Passage 5, Tenofovir 40 μM (8× IC50)) “None”; (Passage 6, Tenofovir 40 μM (8× IC50)) “None”. Also, the “Mutations Observed in RT of Passaged Virus” value is listed as “E300D mix (minor” (Passage 7, Tenofovir 45 μM (9× IC50)); “E404D mix (minor); also recorded: G436E mix (minor)” (Passage 8, Tenofovir 50 μM (10× IC50)); “K65R mix (equal); also recorded: E404D mix (major); also recorded: G436E mix (minor)” (Passage 9, Tenofovir 55 μM (11× IC50)); “K65R mix (major); also recorded: E404D mix (minor); also recorded: G436E mix (minor)” (Passage 10, Tenofovir 60 μM (12× IC50)).
